From article PMC2829057
At least one result comes from cells or an extract, where the contact may be indirect. For some assays here: Construct, isoform or probe ends are uncertain for at least one entry.

Experiments:
[1] = target: PfSIP2-N-HIS_A (Plasmodium falciparum 3D7) (UniProt C6KSN9); test: competition with a labelled probe; details: details not given; protein in a lysate after overexpression; protein details: C-terminal 6xHis; flanks not given
[2] = target: PfSIP2-N-HIS_B (Plasmodium falciparum 3D7) (UniProt C6KSN9); test: EMSA; details: details not given; protein in a lysate after overexpression; protein details: C-terminal 6xHis; flanks not given
[3] = target: SIP2-AP2_12 (Plasmodium falciparum 3D7) (UniProt C6KSN9); test: EMSA; details: details not given; protein in a lysate after overexpression; protein details: N-terminal GST; flanks not given
[4] = target: PfSIP2-N-Ty (Plasmodium falciparum 3D7) (UniProt C6KSN9); test: pull-down; details: affinity binding buffer: 20 mM HEPES pH 7.9, 100 mM KCl, 1 mM EDTA, 2 mM DTT, 2 mM MgCl2, 0.025 mM ZnCl2; nonspecific competitor salmon sperm DNA; protein in a lysate after overexpression; protein details: C-terminal 2xTy; label: 5' biotin on strand 1; letters put together from the description
[5] = target: PfSIP2-N-Ty (Plasmodium falciparum 3D7) (UniProt W7K889); test: pull-down; details: 5' biotin on strand 1; protein in a lysate after overexpression; protein details: C-terminal 2xTy; label: biotin

Sequence | binding result [1] | other results
AAGGTGCACACTGGTGCATT (double strand) [rhoph3] | binds | 
ATTCTGCATAGTGGTGCGAA (double strand) [M1.C2] | binds | 
ATTGTGCATAGTCGTGCGAA (double strand) [M2.C1] | binds | 
ATTGTGCATAGTGGTGCGAA (double strand) [SPE2] | binds | binding result [2]: binds; binding result [3]: binds
GACTTTATTGTGCATAGTGGTGCGATATAG (double strand) [SPE2 pull-down oligo] |  | binding result [4]: binds; binding result [5]: binds
